Target: recombinant full-length NiV-C (6XHis-HA-NiV-C) (Nipah virus, UniProt Q997F1 1-166)
Test: co-IP

B1: recombinant FLAG-EGFP-Tsg101-CTD (6XHis-tagged, EGFP A206K) (domain or fragment)
chain: EKMENQSENNDIDEVIIPTAPLYKQILNLYAEENAIEDTIFYLGEALRRGVIDLDVFLKHVRLLSRKQFQLRALMQKARKTAGLSDLY
notes: also called EGFP-Tsg101-CTD fusion; source: E. coli BL21(DE3), purified (HisTrap HP)
  binding result: binds

From publication PMC4874542, “Nipah Virus C Protein Recruits Tsg101 to Promote the Efficient Release of Virus in an ESCRT-Dependent Pathway” (PLoS Pathogens, 2016)
